Measured data: PubChem BioAssay AID1259414 (Drosophila RNAi Screening Center, 2018)
The deposit covers about 24,000 reagents; this is an unselected part of those with a known target gene and a result. In the full data, about 1,210 (5%) are marked active. 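Inactive calls also include excluded dsRNAs with several or no targets, genes unexpressed in JW18, and well A1, regardless of score.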 A plus sign joins genes that one reagent is predicted to hit.

Aim: 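Host factors increasing or decreasing Wolbachia levels in cultured fly cells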 (primary screen)
System: Drosophila JW18 cells infected with Wolbachia
Knock-down reagent: long dsRNA against Drosophila genes, 0.25 µg dsRNA per well of a 384-well plate
Time to read-out: 5 days
Treatment: cells persistently infected with Wolbachia before knock-down; no added drug
Measured: 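Imaged fluorescence in situ signal for Wolbachia 23S rRNA per DAPI-counted host cell, given as a robust z-score within each plate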
Direction: Wolbachia per cell robust z: higher = more Wolbachia per host cell than the plate typical
Rule for the call: 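Hit when robust z is 1.5 or more, or -1.5 or less, in at least two of three replicates; excludes dsRNAs with several or no targets, genes not expressed in JW18 and well A1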

Silencing of Sidpn (similar to Deadpan) [DRSC02056] resulted in: Wolbachia per cell robust z, rep 1 = -4.7; Wolbachia per cell robust z, rep 2 = -2.09; Wolbachia per cell robust z, rep 3 = -8.13; inactive.
Depletion of CG30484 [DRSC05457] came out at: Wolbachia per cell robust z, rep 1 = -0.342; Wolbachia per cell robust z, rep 2 = 1.28; Wolbachia per cell robust z, rep 3 = 0.866; inactive.
Silencing of CG43759 [DRSC19464] gave: Wolbachia per cell robust z, rep 1 = -0.148; Wolbachia per cell robust z, rep 2 = -9.46; Wolbachia per cell robust z, rep 3 = -0.319; inactive.
Knock-down of CG43759 [DRSC19543] came out at: Wolbachia per cell robust z, rep 1 = 2.12; Wolbachia per cell robust z, rep 2 = 0.573; Wolbachia per cell robust z, rep 3 = 0.83; inactive.
CG43759 [DRSC26393] showed Wolbachia per cell robust z, rep 1 = -0.231; Wolbachia per cell robust z, rep 2 = -0.275; Wolbachia per cell robust z, rep 3 = -0.308; inactive.
After knock-down of CG33922 [DRSC38939], the record shows Wolbachia per cell robust z, rep 1 = -1.19; Wolbachia per cell robust z, rep 2 = -1.24; Wolbachia per cell robust z, rep 3 = -0.445; inactive.
Sin1 (SAPK-interacting protein 1) [DRSC05965] showed Wolbachia per cell robust z, rep 1 = -0.795; Wolbachia per cell robust z, rep 2 = -0.836; Wolbachia per cell robust z, rep 3 = -0.664; inactive.
After knock-down of CG5412 [DRSC15796], the record shows Wolbachia per cell robust z, rep 1 = -0.608; Wolbachia per cell robust z, rep 2 = 0.337; Wolbachia per cell robust z, rep 3 = -0.647; inactive.
Against Toll-9 [DRSC11776] the deposit lists Wolbachia per cell robust z, rep 1 = 0.516; Wolbachia per cell robust z, rep 2 = 0.376; Wolbachia per cell robust z, rep 3 = -0.145; inactive.
With knock-down of CG30154 [DRSC05889], the screen gave Wolbachia per cell robust z, rep 1 = 0.42; Wolbachia per cell robust z, rep 2 = 0.749; Wolbachia per cell robust z, rep 3 = 0.319; inactive.
After knock-down of CG30154 [DRSC26172], the screen gave Wolbachia per cell robust z, rep 1 = -0.411; Wolbachia per cell robust z, rep 2 = -0.631; Wolbachia per cell robust z, rep 3 = -0.332; inactive.
gprs [DRSC06761] scored Wolbachia per cell robust z, rep 1 = -0.48; Wolbachia per cell robust z, rep 2 = -0.509; Wolbachia per cell robust z, rep 3 = -0.346; inactive.
After knock-down of CG13840 [DRSC23279], the screen gave Wolbachia per cell robust z, rep 1 = 0.668; Wolbachia per cell robust z, rep 2 = 0.536; Wolbachia per cell robust z, rep 3 = 0.881; inactive.
Against CG13840 [DRSC28749], the values are Wolbachia per cell robust z, rep 1 = 0.435; Wolbachia per cell robust z, rep 2 = 0.447; Wolbachia per cell robust z, rep 3 = -2.31; inactive.
Cyp316a1 (Cytochrome P450 316a1) [DRSC11130] showed Wolbachia per cell robust z, rep 1 = -0.0903; Wolbachia per cell robust z, rep 2 = 1.13; Wolbachia per cell robust z, rep 3 = 1.19; inactive.
Silencing of Cyp316a1 (Cytochrome P450 316a1) [DRSC29059] gave: Wolbachia per cell robust z, rep 1 = 0.955; Wolbachia per cell robust z, rep 2 = 1.37; Wolbachia per cell robust z, rep 3 = 0.537; inactive.
With knock-down of fs(1)Ya (female sterile (1) Young arrest) [DRSC23058] the results were Wolbachia per cell robust z, rep 1 = -1.73; Wolbachia per cell robust z, rep 2 = -0.268; Wolbachia per cell robust z, rep 3 = 0.152; inactive.

Ordered by “Wolbachia per cell robust z, rep 1” (descending): 2 of the entries above
CG13840 [DRSC28749] → Wolbachia per cell robust z, rep 1: 0.435; Wolbachia per cell robust z, rep 2: 0.447; Wolbachia per cell robust z, rep 3: -2.31; call: inactive
Cyp316a1 (Cytochrome P450 316a1) [DRSC11130] → Wolbachia per cell robust z, rep 1: -0.0903; Wolbachia per cell robust z, rep 2: 1.13; Wolbachia per cell robust z, rep 3: 1.19; call: inactive

The list goes on.
After knock-down of CG9386 [DRSC16485], the screen gave Wolbachia per cell robust z, rep 1 = 0.534; Wolbachia per cell robust z, rep 2 = -7.28; Wolbachia per cell robust z, rep 3 = -0.0242; inactive.
CG12084 [DRSC08247] scored Wolbachia per cell robust z, rep 1 = 0.451; Wolbachia per cell robust z, rep 2 = 0.662; Wolbachia per cell robust z, rep 3 = -0.266; inactive.
After knock-down of CG12084 [DRSC26814] the results were Wolbachia per cell robust z, rep 1 = 0.0913; Wolbachia per cell robust z, rep 2 = 0.211; Wolbachia per cell robust z, rep 3 = 0.201; inactive.
For CG43328 + CG43327 [DRSC05640], the values are Wolbachia per cell robust z, rep 1 = -1.49; Wolbachia per cell robust z, rep 2 = -0.701; Wolbachia per cell robust z, rep 3 = -0.351; inactive.
For CG7906 [DRSC10928], the entry reads Wolbachia per cell robust z, rep 1 = 0.536; Wolbachia per cell robust z, rep 2 = 0.483; Wolbachia per cell robust z, rep 3 = 0.77; inactive.
After knock-down of CG7906 [DRSC29526], the record shows Wolbachia per cell robust z, rep 1 = -0.00425; Wolbachia per cell robust z, rep 2 = 1.12; Wolbachia per cell robust z, rep 3 = -1.8; inactive.
Depletion of phr + CG18853 [DRSC27486] gave: Wolbachia per cell robust z, rep 1 = 0.794; Wolbachia per cell robust z, rep 2 = -0.815; Wolbachia per cell robust z, rep 3 = -6.21; inactive.
For sea + fabp [DRSC16115] the deposit lists Wolbachia per cell robust z, rep 1 = -0.607; Wolbachia per cell robust z, rep 2 = -1.73; Wolbachia per cell robust z, rep 3 = -0.506; inactive.
mat (materazzi) [DRSC08376] scored Wolbachia per cell robust z, rep 1 = 0.169; Wolbachia per cell robust z, rep 2 = 0.128; Wolbachia per cell robust z, rep 3 = -0.969; inactive.
For mat (materazzi) [DRSC22841], the entry reads Wolbachia per cell robust z, rep 1 = -0.255; Wolbachia per cell robust z, rep 2 = -1.07; Wolbachia per cell robust z, rep 3 = -0.00597; inactive.
Silencing of mat (materazzi) [DRSC27210] resulted in: Wolbachia per cell robust z, rep 1 = -0.276; Wolbachia per cell robust z, rep 2 = 0.918; Wolbachia per cell robust z, rep 3 = 0.107; inactive.
s-cup (stanley-cup) [DRSC06277] scored Wolbachia per cell robust z, rep 1 = 0.253; Wolbachia per cell robust z, rep 2 = -1.27; Wolbachia per cell robust z, rep 3 = 0.255; inactive.
Depletion of s-cup (stanley-cup) [DRSC06278] gave: Wolbachia per cell robust z, rep 1 = -0.386; Wolbachia per cell robust z, rep 2 = 0.199; Wolbachia per cell robust z, rep 3 = 0.296; inactive.
Silencing of s-cup (stanley-cup) [DRSC24270] resulted in: Wolbachia per cell robust z, rep 1 = 0.73; Wolbachia per cell robust z, rep 2 = 1.27; Wolbachia per cell robust z, rep 3 = 2.18; inactive.
